Laboratory results published in patent publication US20090092553A1, “MONOCARBOXYLATE TRANSPORTERS EXPRESSED IN CANCER CELLS” (Xenoport,Inc., priority 2003, published 2009).

What was measured:
[1] = system: KB human oral epidermoid carcinoma cell line; assay: Alamar blue cytotoxicity assay, KB cells; conditions: 48 hour treatment
[2] = system: PC3 human prostate cancer epithelial cell line; assay: Alamar blue cytotoxicity assay, PC3 cells; conditions: PC3, 48 hour treatment
[3] = system: HT29 human colon carcinoma cell line; assay: Alamar blue cytotoxicity assay, HT29 cells; conditions: HT29, 48 hour treatment
[4] = system: LoVo human colorectal cancer cell line; assay: Alamar blue cytotoxicity assay, LoVo cells; conditions: 48 hour treatment

SMILES: COc1ccc(C(=O)O)cc1N(CCCl)CCCl
- GI50 [1]: 401 µM
- GI50 [2]: 242 µM
- GI50 [3]: ≥ 1.02 mM
- GI50 [4]: 205 µM
